Anti-infective test results gathered from many reports (values: NIAID ChemDB through PubChem).

Shared fields: growth or infection tests; agent: Human cytomegalovirus; method: plaque count; endpoint: EC50

Neighbouring rows are from separate reports.

| smiles | strain or isolate | cells | result |
|---|---|---|---|
| Nc1nc2c(ncn2COC(CO)CO)c(=O)[nH]1 | C8914-6 drug-resistant | HFF | 104 µM |
| COc1cccc(N2CCN(C3=Nc4c(F)cccc4[C@H](CC(=O)O)N3c3cc(C(F)(F)F)ccc3OC)CC2)c1 | Clinical isolate 8 | - | 0.002 µM |
| CC(C)Nc1nc2cc(Cl)c(Cl)cc2n1[C@H]1O[C@@H](CO)[C@H](O)[C@@H]1O | C8301 | MRC-5 | 0.12 µM |
| NC(=O)c1c(Cl)c(-c2cccnc2)n2c1CCCC2 | DER648 (ganciclovir cidofovir-resistant) | HEL | 0.0012 µM |
| OC[C@H]1O[C@@H](n2c(Br)nc3cc(Cl)c(Cl)cc32)[C@H](O)[C@@H]1O | TOWNE | HFF | 1.2 µM |
| CCCCCCCCCCCCCCCCCCOCCOP1(=O)CO[C@@H](Cn2ccc(N)nc2=O)CO1 | WILD TYPE | MRC-5 | 0.0015 µM |
| Nc1nc2c(ncn2COC(CO)CO)c(=O)[nH]1 | VR5406 (ganciclovir-resistant) | - | 20 µM |
| CC/C=C\Cn1c(=O)sc2c(=O)[nH]c(N)nc21 | P8 (DHPG-S) | - | <0.4 µM |
| O=C(NCc1ccc(Cl)cc1)c1c[nH]c2ccc(C#CCO)cc2c1=O | DAVIS | - | 1.7 µM |
| Nc1nc2c(ncn2COC(CO)CO)c(=O)[nH]1 | TOWNE | - | 4.9 µM |
| O[C@@H]1[C@H](O)[C@H](O)CO[C@H]1n1c(Br)nc2cc(Cl)c(Cl)cc21 | RCMP97 (drug-resistant) | HFF | 2.3 µM |
| Nc1ccn(C[C@H]2COP(=O)(O)CO2)c(=O)n1 | WILD TYPE | MRC-5 | 0.99 µM |
| Nc1nc2c(ncn2COC(CO)CO)c(=O)[nH]1 | C8912 | MRC-5 | 2.6 µM |
| CCCCCCCCCCCCCCCCOCCCOP(=O)(O)CO[C@H](CO)Cn1ccc(N)nc1=O | Coffman | MRC-5 | 0.001 µM |
| Nc1ccn(C[C@@H](CO)OCP(=O)(O)O)c(=O)n1 | Acyclovir-resistant | HEL | 0.63 µM |

The first 2 rows once more:

smiles,strain or isolate,cells,result
Nc1nc2c(ncn2COC(CO)CO)c(=O)[nH]1,C8914-6 drug-resistant,HFF,104 µM
COc1cccc(N2CCN(C3=Nc4c(F)cccc4[C@H](CC(=O)O)N3c3cc(C(F)(F)F)ccc3OC)CC2)c1,Clinical isolate 8,-,0.002 µM

ECn is the concentration giving n% inhibition of infection, replication or growth. An empty or dashed field is not shown.